Test results taken from publication PMC5278390 (Scientific Reports, 2017).
Changes are numbered by the printed parent chain. Numbers in names are those of the source.

B1: NKp46 Ig (extracellular part of human NKp46 fused to human IgG1) (Fc fusion, UniProt O76036 22-258, looked up)
chain: QQQTLPKPFIWAEPHFMVPKEKQVTICCQGNYGAVEYQLHFEGSLFAVDRPKPPERINKVQFYIPDMNSRMAGQYSCIYRVGELWSEPSNLLDLVVTEMYDTPTLSVHPGPEVISGEKVTFYCRLDTATSMFLLLKEGRSSHVQRGYGKVQAEFPLGPVTTAHRGTYRCFGSYNNHAWSFPSEPVKLLVTGDIENTSLAPEDPTFPADTWGTYLLTTETGLQKDHALWDHTAQNLLR
notes: It runs as two bands on reducing SDS-PAGE, which the authors take to be differently glycosylated products; also called NKp46 fusion protein; WT NKp46 Ig
B2: NKp46 W32R Ig (extracellular part of human NKp46 W32R fused to human IgG1) (Fc fusion)
chain: B1 chain with W11R
notes: also called NKp46 W32R fusion protein

Biological target: T1, HA Ig (extracellular part of the HA protein of influenza PR8 fused to human IgG1), biotinylated (influenza virus A/Puerto Rico/8/34 H1N1 …)
T1 construct: also called biotinylated HA Ig; biotin conjugated HA Ig
Assay: far-Western, overlay or dot blot
Conditions: both partners purified

Row | Binder | binding result
1 | B1 | binds
2 | B2 | binds
